Anti-infective test results gathered from many reports (values: NIAID ChemDB through PubChem).

A number after MIC or MFC names an inhibition level or a share of isolates. ECn: concentration that inhibits the pathogen or its effect by n%. Conditions beyond the fields shown may differ between rows. Percent inhibition refers to the dose given; in toxicity tests it is the harm to the cells. ICn is the concentration giving n% inhibition. Blank or dashed fields: not listed here.

structure,test,organism,strain or isolate,cells,protein,read by,endpoint,dose,result
CCC(CC)[C@H](NC(C)=O)[C@@H]1[C@H](O)[C@@H](C(=O)O)C[C@H]1N=C(N)N,culture,Influenza A virus,H1N1 A/TEXAS/36/91,MDCK,-,visual reading,EC50,-,0.05 µM
Oc1ccccc1C=Nc1ccccc1O,culture,Cryptococcus gattii,L24/01,-,-,-,MIC99,-,5.7 µg/mL
Cc1ccc(N2CCN(c3cncc(-c4ccc(C(F)(F)F)cc4)n3)CC2)cc1,target,Cytomegalovirus,-,-,UL97 kinase,-,inhibition,1 µM,<50%
Cc1ccc(C(=O)Nc2ccc(S(=O)(=O)O)c3cc(S(=O)(=O)O)cc(S(=O)(=O)O)c23)cc1NC(=O)c1cccc(NC(=O)Nc2cccc(C(=O)Nc3cc(C(=O)Nc4ccc(S(=O)(=O)O)c5cc(S(=O)(=O)O)cc(S(=O)(=O)O)c45)ccc3C)c2)c1,culture,Herpes simplex virus,-,Human amnion AV3 cells,-,cytopathic effect,inhibition,10 µg/mL,47%
C=CCc1ccc(OC)c(OC)c1,culture,Candida tropicalis,2768,-,-,turbidity,MIC90,-,340 µg/mL
COc1cc(-c2cncc(N3CCN(c4cccc5[nH]ccc45)CC3)n2)cc(OC)c1OC,target,Cytomegalovirus,-,-,UL97 kinase,-,inhibition,10 µM,>15%
CCOC(=O)c1ccc(OCCC2CCN(c3ccc(C)nn3)CC2)cc1,culture,Rhinovirus,1983-CV48 (ICAM-1 receptor group 66),KB,-,neutral red,EC50,-,0.002 µM
O=S(=O)(O)c1ccc2cc(O)c(S(=O)(=O)O)cc2c1,culture,Adenovirus,TYPE 3,Human embryonic lung cells,-,cytopathic effect,inhibition,10 µg/mL,43%
CCOC(=O)c1c(C)nc(NCCCCNc2ccnc3cc(Cl)ccc23)nc1-c1ccccc1,culture,Cryptococcus neoformans,F-10,-,-,-,MIC99,-,4 µg/mL
O=S(=O)(O)c1cc(O)c2c(O)cc(S(=O)(=O)O)cc2c1,culture,Herpes simplex virus,-,Human amnion AV3 cells,-,cytopathic effect,inhibition,50 µg/mL,80%
Fc1cccc(-c2cncc(N3CCN(c4ccncc4)CC3)n2)c1,target,Cytomegalovirus,-,-,UL97 kinase,-,inhibition,10 µM,>15%
Oc1cccc(C=Nc2ccccc2O)c1,culture,Cryptococcus gattii,ATCC 32608,-,-,-,MIC99,-,8 µg/mL
Nc1c(S(=O)(=O)O)cc2cc(S(=O)(=O)O)cc(O)c2c1O,culture,Adenovirus,TYPE 3,Human amnion AV3 cells,-,cytopathic effect,inhibition,5 µg/mL,0%
COc1ccc(-c2cncc(N3CCN(c4ccc(C)cc4)CC3)n2)cc1F,target,Cytomegalovirus,-,-,UL97 kinase,-,inhibition,10 µM,>15%
Nc1c(S(=O)(=O)[O-])cc2cc(S(=O)(=O)[O-])ccc2c1O,culture,Herpes simplex virus,-,Human conjunctiva cells,-,cytopathic effect,inhibition,50 µg/mL,0%
Oc1ccccc1N=Cc1ccc2c(c1)OCO2,culture,Cryptococcus neoformans,LMM 820,-,-,-,MIC99,-,4 µg/mL
CCOc1ccccc1-c1cncc(N2CCN(c3ccc(C)cc3)CC2)n1,target,Cytomegalovirus,-,-,UL97 kinase,-,IC50,-,<100 µM
Fc1ccc(N2CCCCC2)c(NC(=S)c2ccncc2)c1,host protein,-,-,-,PDGFRalpha (D842V),kinase activity,inhibition,10 µM,12%
O=S(=O)([O-])c1ccc(NS(=O)(=O)c2ccccc2)c2c(S(=O)(=O)[O-])cccc12,culture,Adenovirus,TYPE 3,Human amnion AV3 cells,-,cytopathic effect,inhibition,10 µg/mL,0%

Again, the opening 3 rows:

structure,test,organism,strain or isolate,cells,protein,read by,endpoint,dose,result
CCC(CC)[C@H](NC(C)=O)[C@@H]1[C@H](O)[C@@H](C(=O)O)C[C@H]1N=C(N)N,culture,Influenza A virus,H1N1 A/TEXAS/36/91,MDCK,-,visual reading,EC50,-,0.05 µM
Oc1ccccc1C=Nc1ccccc1O,culture,Cryptococcus gattii,L24/01,-,-,-,MIC99,-,5.7 µg/mL
Cc1ccc(N2CCN(c3cncc(-c4ccc(C(F)(F)F)cc4)n3)CC2)cc1,target,Cytomegalovirus,-,-,UL97 kinase,-,inhibition,1 µM,<50%